From paper PMC12871957

Tests used:
[1] = molecular target: HIV-1 capsid (core) with wild type CA (HIV-1)
[2] = molecular target: HIV-1 capsid (core) with wild type CA (HIV-1); test: TIRF microscopy of fluorescent CypA bound to cores in immobilised, permeabilised virions; biotinylated HIV-1 particles immobilized on PLL-PEG-biotin coverslips in microfluidic channels, permeabilized with streptolysin O in 0.1 mM IP6; 2 µM AF647-CypA mixed with unlabelled CypA to 2-150 µM final; median signal at equilibrium fitted with an equilibrium binding model

Question: Which results are given for “cyclophilin A (CypA) (from UniProt P62937 1-165) (natural protein)”?
Answer: AFM: percentage of purified wild type cores that break on strong compression, with recombinant CypA added up to 40 μM (% of cores broken) [1]: 30; Kd [2]: 25.7 µM
